Measurements: paper PMC9302720, “The structural role of SARS-CoV-2 genetic background in the emergence and success of spike mutations: The case of the spike A222V mutation” (2022)
pKd: −log10 of the molar value.

Biological target: SARS-CoV-2 protein S ectodomain, S:D614G variant (SARS-CoV-2 | not stated) (UniProt P0DTC2)
Assay: BLI

N-terminal peptidase domain of human ACE2 (domain or fragment)
pKd: 7.18
koff: 0.0202 s⁻¹
kon: 303000 M⁻¹ s⁻¹
